Several values for one entry are separate records, joined by “and”; a condition that tells them apart may be missing. Equal entries are not always repeated. Records with an inconclusive call do not appear.
Tested on: MX-1 breast xenograft, intrarenal, nude mice, tumor weight
Assay: NCI In Vivo Anticancer Drug Screen. Data for tumor model Human Mammary Carcinoma MX-1 Xenograft (intrarenal inoculation) in NU/NU BALB/C (nude) mice
Conditions: endpoint: mean tumor weight change, schedule: Q04DX003 (ip), vehicle: saline, higher = larger tumour
Protocol: The antitumor activity of compounds was measured in mice bearing transplantable tumors. Survival or tumor size were measured and the results are expressed as the measurement made in the treated group (T) divided by the measurement made in the vehicle treated control group (C). The tumor model used in this assay is Human Mammary Carcinoma MX-1 Xenograft (intrarenal inoculation) in NU/NU BALB/C (nude) mice

**Q.** `O=P1(N(CCCl)CCCl)NC(SCCS(=O)(=O)O)CCO1` (centres undefined) was tested. Which T/C (dose: 37.5 mg/kg/injection) did it give?
**A.** The T/C was 1 % of control.

**Q.** And the T/C (dose: 75.0 mg/kg/injection)?
**A.** The T/C was -81 % of control.

**Q.** What about the T/C (dose: 150.0 mg/kg/injection) of the same compound?
**A.** The T/C was -100 % of control and -83 % of control.

**Q.** What about the T/C (dose: 300.0 mg/kg/injection) of the same compound?
**A.** Its T/C is -95 % of control.
